PubChem BioAssay AID504761 | Drosophila RNAi Screening Center | 2011
Screen: 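Genome-wide fly cell screen for genes dengue virus requires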 (primary screen). Cell system: D.Mel-2 cells from Drosophila. Knock-down reagent: long dsRNA against Drosophila genes. Conditions: infection with dengue virus type 2; dose and infection time not stated. Detection: 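Per well on two replicate plates, imaging gave the percent of cells positive for viral envelope protein, ranked by infection, and a nuclear count of cells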. Scale: infection score: higher = more virus-infected cells; cell count: higher = more cells in the well. Hit rule: 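Very low infection ranking in both replicate wells (chance probability at most 0.065), then a retest showing infection dropped 1.5-fold or more at p below 0.05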. Meaning of the calls: active = confirmed: knock-down lowers infection; inactive = not picked or not confirmed.
The screen tested about 22,000 reagents; shown is a random part of those that have a named target and a result. In the full data, 116 (0.52%) are marked active. 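Calls depend on retest data that are not deposited; infection was ranked per plate without normalising between plates; the unit of the infection score is not given.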 Raw values vary from plate to plate and are shown uncorrected. A number with no mark means an inactive call. Not stated in the record: the amount of reagent, the time to read-out.

gene | DRSC id | infection score, replicate 1 | infection score, replicate 2 | cell count, replicate 1 | cell count, replicate 2
CG11155 | DRSC17205 | 13.2 | 6.32 | 6020 | 7023
CG11155 | DRSC29324 | 15.5 | 9.42 | 3284 | 2006
CG16743 | DRSC24981 | 5.24 | 8.38 | 5842 | 5595
homer | DRSC03547 | 1.72 | 2.47 | 5883 | 5943
homer | DRSC29162 | 10.9 | 25 | 5902 | 4077
CG12320 | DRSC14498 | 0.85 | 4.71 | 6668 | 5797
Mrtf (Myocardin-related transcription factor) | DRSC08410 | 2.88 | 8.18 | 5486 | 5034
Mrtf (Myocardin-related transcription factor) | DRSC23194 | 0.46 | 3.47 | 6289 | 6372
Mrtf (Myocardin-related transcription factor) | DRSC30105 | 2.34 | 3.2 | 7258 | 6148
Afg3l2 (AFG3 like matrix AAA peptidase subunit 2) | DRSC10657 | 7.13 | 23 | 3323 | 3010
Afg3l2 (AFG3 like matrix AAA peptidase subunit 2) | DRSC29981 | 29.7 | 10.5 | 3358 | 4240
Or22b (Odorant receptor 22b) | DRSC00765 | 2.31 | 7.62 | 6240 | 6586
rad50 | DRSC04523 | 16.5 | 15 | 6014 | 6320
CheB38a (Chemosensory protein B 38a) | DRSC03205 | – | 10 | 552 | 7211
CheB38a (Chemosensory protein B 38a) | DRSC29814 | 25.9 | 9.71 | 6012 | 6212
Usp1 (Ubiquitin specific protease 1) | DRSC14155 | 1.07 | 1.81 | 6053 | 6804
Gbs-76A (Glycogen binding subunit 76A) | DRSC11081 | 14.8 | 6.97 | 5776 | 6775
Cyp313a5 (Cytochrome P450 313a5) | DRSC16628 | 14.7 | 4.61 | 6280 | 7004
Osi21 (Osiris 21) | DRSC02408 | 8.38 | 9.59 | 6242 | 6038
Nulp1 (Nuclear localized protein 1) | DRSC09677 | 10.7 | 9.98 | 6619 | 6885
CG31221 | DRSC14335 | 7.27 | 1.31 | 6139 | 6924
CG31221 | DRSC16217 | 1.3 | 4.24 | 6931 | 5568
CG31221 | DRSC23748 | 1.91 | 8.4 | 6895 | 6384
GILT1 (Gamma-interferon-inducible lysosomal thiol reductase 1) | DRSC16565 | 9.85 | 4.28 | 6312 | 6512
Sec16 (Secretory 16) | DRSC19788 | – | 15.2 | 444 | 4264
CG8543 | DRSC10990 | 5.35 | 4.09 | 5925 | 6352
CG8543 | DRSC22809 | 1.25 | 29.2 | 6220 | 3526
CG8543 | DRSC25399 | – | 3.46 | – | 5917
Argp (Arginine phosphatase) | DRSC16510 | 3.19 | 6.65 | 6108 | 6364
tay (tay bridge) | DRSC20142 | 2 | 1.78 | 6293 | 6468
CG8773 | DRSC16444 | 2.94 | 5.32 | 6196 | 6332
CG8773 | DRSC23903 | 15.9 | 8.02 | 5772 | 6124
CG33308 | DRSC01419 | 2.31 | 1.02 | 5448 | 5497
CG8813 | DRSC00706 | 7.22 | 4.89 | 6484 | 6752
bin3 (bicoid-interacting protein 3) | DRSC04919 | 10.8 | 11.7 | 5518 | 6783
CG9663 | DRSC00724 | 7.94 | 4.47 | 6398 | 6667
CG10713 | DRSC09786 | 0.51 | 2.83 | 6654 | 6046
CG10713 | DRSC24532 | 1.1 (active) | 1.49 | 6206 | 5909
Sec24CD (Secretory 24CD) | DRSC00300 | 5.91 | 3.64 | 5823 | 6095
